IC50 data for 1 substance are collected here from patent US20040053872A1, “New sequences” (priority 2000, published 2004).

This series has as its target recombinant HIV-1 RT, ref RT (HIV type B, clone BH 10) (Human immunodeficiency virus type 1 group M subtype B, UniProt P03366). The following applies: read-out: Inhibition of binding to primer (BIC50), immobilised primer, binding 90 min at 33° C. On the procedure:
(iii) Protocol for RT binding inhibition (BIC) assay: The study was performed in a modified DNA polymerase assay. The inhibitors were serially diluted in five steps, enzyme dilution was added and the enzyme/inhibitor mixtures were incubated for 30 minutes at 33° C. Aliquots of the enzyme/inhibitor mixture were transferred to each well of a microtiter plate containing either immobilised primer, or primer/template. The enzyme was allowed to bind to the immobilised polymer for 90 min at 33° C. The amount of RT used was standardised to an activity corresponding to 40-60 pg (3.3-5.0×10^−16 mol) reference HIV-1 RT per well. The plates were then washed to remove unbound enzyme whereupon the amount of bound enzyme was determined by addition of the appropriate reaction solution for polymerisation (i e a reaction solution devoid of primer for studies of primer binding and a reaction solution devoid of both primer and template for studies of binding to primed template). The polymerase reaction was allowed to proceed for 3 hours at 33° C., whereupon the reaction was terminated by a wash of the plate.
The capacity of the indicated substances to inhibit the binding to primer or to primed DNA template of a panel of recombinant HIV 1 subtype B RTs was studied according to “Protocol for RT binding inhibition (BIC) assay” (protocol (iii) above).

For “substance 199: 35-mer RNA molecule having the sequence set out in SEQ ID NO:5; similar to SEQ ID NO:4 with some naturally occurring nucleotide derivatives (GCUCAGNCGGNAGAGCANCAGACUUUUAANCUGAN; RNA, backbone, methylation of C and the base at N not given here; naturally occurring modified nucleosides at n positions)”, the IC50 was 2 nM.
